This test addresses wild-type 3CL^pro (Severe acute respiratory syndrome coronavirus 2, UniProt P0DTD1). The format is binding, SARS-CoV-2.

Each structure is given as a SMILES string.

Regarding `CC(C)(C)c1ccc(N(C(=O)c2c[nH]cn2)[C@@H](C(=O)NC2CCCCC2)c2cccnc2)cc1` [X77], the ΔG is given as -7.6 kcal mol -1.

These data come from article PMC13347698 (Analytical Chemistry, 2026).
